In publication PMC8062000, “High-throughput screening of the ReFRAME, Pandemic Box, and COVID Box drug repurposing libraries against SARS-CoV-2 nsp15 endoribonuclease to identify small-molecule inhibitors of viral activity” (PLoS ONE, 2021):
Some entries of the source have several records that differ or are many. Only these are listed. An entry can have further records. The values listed for one entry differ, and nothing given here explains why; some may be repeats, others may stem from another dose, organism or construct than stated.

Assay: Amplex Red redox-cycling counter screen (H2O2 generation with DTT)
Details: 1 mM DTT; compared with redox-cycling reference DA-3003-1

With CC1(C)C(=O)N=C2C1=C(O)C(=O)c1ccccc12 [BVT-948] the “Amplex Red Assay % Activity (redox cycling)” value was “redox reactive compounds and >100%”.
